# Mutational tolerance of the Zika virus NS2B-NS3 protease

The measurements come from Ni et al. 2025 (doi:10.1038/s41467-025-63602-z).

Chain scanned (Zika virus MR766; NS2B from position 2 to 131, then the start of NS3):
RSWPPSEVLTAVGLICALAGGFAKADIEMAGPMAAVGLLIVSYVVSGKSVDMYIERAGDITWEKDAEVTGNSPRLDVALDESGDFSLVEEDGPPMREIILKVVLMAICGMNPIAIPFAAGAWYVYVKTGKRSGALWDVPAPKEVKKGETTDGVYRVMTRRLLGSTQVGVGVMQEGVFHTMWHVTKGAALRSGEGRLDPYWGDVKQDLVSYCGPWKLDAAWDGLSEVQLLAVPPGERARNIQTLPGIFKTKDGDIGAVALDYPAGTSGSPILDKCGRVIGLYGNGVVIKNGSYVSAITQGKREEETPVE

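Mutant virus pools were grown in human Huh-7.5 cells. The effect is the change in frequency of a mutant, normalised to wild type, as a mean of three replicate libraries (two for positions 207-308). The study looked for pockets that tolerate few changes, as a guide for inhibitor design.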

Values are log2 effects on growth: 0 is wild type, lower means poorer growth. A change reads original residue, position, new residue. An asterisk is a stop codon; stop codons read about -7, near the floor of the assay. The authors count -1 or higher as tolerated. Position 1 is the last residue of NS2A. Positions 1-103, 104-206 and 207-308 were made and measured as separate libraries. Six mutants with high scores were retested singly and none clearly outgrew wild type, so positive values are not proof of better growth.

* S2N = -7.28
* W3G = -8.33
* G13K = -5.98
* G13Q = -5.79
* L14A = -4.82
* I15W = -4.95
* C16Y = -6.93
* M29I = -1.37
* P32M = -5.29
* I40T = 0.07
* S46M = 0.50
* S49R = -5.80
* V50L = -2.63
* Y53C = -4.11
* I54P = -7.56
* D65K = -5.96
* G70F = -6.22
* S72V = -6.85
* R74* = -7.90
* D80Y = -4.28
* E81G = -6.60
* L87M = -6.78
* L87R = -8.25
* E89I = -3.77
* G92F = -2.24
* P93G = -4.67
* E97C = -3.36
* K101Q = -6.56
* L104I = -4.45
* L104P = -4.82
* P112E = -5.08
* G120N = -6.70
* Y125A = -3.49
* Y125L = -2.94
* S132C = -5.57
* S132D = -5.59
* L135D = -6.56
* L161Y = -4.84
* E174C = -3.44
* H182* = -6.26
* Y199R = -2.88
* Y210D = -6.00
* W214Y = -7.02
* K215* = -8.56
* W220Y = -3.26
* G222D = -5.92
* L223* = -7.00
* E225K = -4.63
* Q227Y = -5.36
* R238N = 0.06
* T242V = -6.30
* R276D = -4.48
* R276E = -3.90
* R276V = -6.02
* I278E = -4.03
* N283E = -4.67
* V285I = -5.23
* V285R = -6.11
* A295Q = -4.88
* Q298K = -5.98
* E303M = -1.08
* E303Q = -1.10
* T305E = 0.44
* V307S = -0.83

Excerpt, the final 6 entries:

substitution,log2 growth effect
A295Q,-4.88
Q298K,-5.98
E303M,-1.08
E303Q,-1.10
T305E,0.44
V307S,-0.83